A mixed list of measured activities; the numbers were collected in NIAID ChemDB.

All rows: tests in culture; species: HIV-1; read by: RT activity; measure: EC50

ECn: concentration that inhibits the pathogen or its effect by n%. Neighbouring rows are from separate reports. An empty or dashed field is not shown.

compound | mutations | strain or isolate | cells | conditions | result
C=C(C)[C@@H]1CC[C@]2(C(=O)NCCCCCCCC(=O)N[C@@H](CC(C)C)[C@@H](O)CC(=O)O)CC[C@]3(C)[C@H](CC[C@@H]4[C@@]5(C)CC[C@H](O)C(C)(C)[C@@H]5CC[C@]43C)[C@@H]12 | - | LAI | CEM + CEM-4 | - | 0.2 µM
COc1nc(N)nc2c1ncn2[C@H]1CO[C@@H](CO)O1 | - | LAI | PBMC | - | 0.8 µM
CC(C)[C@H](NC(=O)[C@H](Cc1ccccc1)C[C@H](O)[C@H](Cc1ccccc1)NC(=O)OC(C)(C)C)C(=O)N[C@@H](Cc1ccccc1)C(=O)N1CCOCC1 | - | Z-84 | MT-2 | - | 0.01 µM
CC(C)(C)NC(=O)[C@@H]1CN(Cc2cccnc2)CCN1C[C@@H](O)C[C@@H](Cc1ccccc1)C(=O)N[C@H]1c2ccccc2C[C@H]1OC(=O)[C@H](Cc1ccccc1)NC(=O)OC(C)(C)C | - | LAI | CEM | - | 0.43 µM
CC(C)C1=C2[C@H]3CC[C@@H]4[C@@]5(C)CC[C@H](OC(=O)CC(C)(C)C(=O)O)C(C)(C)[C@@H]5CC[C@@]4(C)[C@]3(C)CC[C@@]2(NC(=O)c2ccccc2F)CC1=O | - | IIIB | MT-2 | 30% human serum | <0.199 µM
Cc1cn([C@H]2C=C[C@@H](CO)O2)c(=O)[nH]c1=O | - | IIIB | CEM + CEM TK- | - | 2.355 µM
Cc1cn([C@H]2C=C[C@@H](CO)O2)c(=O)[nH]c1=O | - | IIIB | MT-4 | - | 0.28 µM
CC(C)(C)NC(=O)[C@@H]1C[C@@H]2CCCC[C@@H]2CN1C[C@@H](OC(=O)NCCCCOc1ccc(C[C@H](N)C(=O)O)cc1)[C@H](Cc1ccccc1)NC(=O)[C@H](CC(N)=O)NC(=O)c1ccc2ccccc2n1 | - | LAI | CEM | - | 2.3 µM
Cc1cn([C@H]2C[C@H](N=[N+]=[N-])[C@@H](CO)O2)c(=O)[nH]c1=O | - | LAI | PBMC | - | 0.03 µM
O=c1ccn([C@H]2C=C[C@@H](CO)O2)c(=O)n1CCCCCCN1CCN(CCNC(=S)Nc2ccc(Br)cn2)CC1 | - | IIIB | MT-4 | - | >100 µM
COC(c1ccc(F)cc1)C(F)(F)c1nc2ccccc2o1 | - | LAI | CEM + CEM-SS | - | >100 µM
CN(C)CCSc1cccc(-c2ccnc(SCCN(C)C)n2)c1 | - | LAV | PBMC | - | 9.3 µM
CC1=N/C(=C/c2ccc(N(C)C)cc2)C(=O)N1c1nc(C)cc(Cl)n1 | - | - | - | - | 66.81 µg/mL
CN(C)CCNc1nc(-c2cccs2)cc(-c2cc3ccccc3s2)n1 | - | LAV | PBMC | - | 5.8 µM
CCCCCCCC/C=C\CCCCCCCC(=O)OCC(COC(=O)CCCCCCC/C=C\CCCCCCCC)OC(=O)CCC(=O)O[C@@H]1Cc2ccccc2[C@@H]1NC(=O)[C@H](Cc1ccccc1)C[C@H](O)CN1CCN(Cc2cccnc2)C[C@H]1C(=O)NC(C)(C)C | - | LAI | CEM | - | 2.1 µM
COc1cc(/C=C2/N=C(c3ccccc3)N(c3nc(C)cc(Cl)n3)C2=O)ccc1O | - | - | - | - | 42.47 µg/mL
CC(C)C1=C2C3CCC4[C@@]5(C)CC[C@H](OC(=O)CC(C)(C)C(=O)O)C(C)(C)C5CC[C@@]4(C)[C@]3(C)CC[C@@]2(NC(=O)c2nnc(C(C)C)o2)CC1=O | - | IIIB | MT-2 | 30% human serum | <0.199 µM
COC(c1ccccc1)C(F)(F)c1nc2ccccc2o1 | - | LAI | CEM + CEM-SS | - | >100 µM
Cc1cn([C@H]2C=C[C@@H](CO)O2)c(=O)n(CCCCCCN2CCN(CCNC(=S)Nc3ccc(Br)cn3)CC2)c1=O | - | IIIB | PBMC | - | 70 µM
CC(C)C[C@H](NC(=O)OC(C)(C)C)C(=O)O[C@@H]1Cc2ccccc2[C@@H]1NC(=O)[C@H](Cc1ccccc1)C[C@H](O)CN1CCN(Cc2cccnc2)C[C@H]1C(=O)NC(C)(C)C | - | LAI | CEM | - | 0.685 µM
COc1ccnc2[nH]cc(C(=O)C(=O)N3CCN(C(=O)c4ccccc4)C[C@H]3C)c12 | GP120-M426L | LAI(GP120-M426L) Recombinant | MT-2 | - | 0.462 µM
COc1ccc(/C=C2/N=C(c3ccccc3)N(c3nc(C)cc(Cl)n3)C2=O)cc1 | - | - | - | - | 33.41 µg/mL
CCCCCCCCCCCCCCCC(=O)OCC(COC(=O)CCCCCCCCCCCCCCC)OC(=O)CCC(=O)O[C@@H](C[C@@H](Cc1ccccc1)C(=O)N[C@H]1c2ccccc2C[C@H]1OC(=O)CCC(=O)OC(COC(=O)CCCCCCCCCCCCCCC)COC(=O)CCCCCCCCCCCCCCC)CN1CCN(Cc2cccnc2)C[C@H]1C(=O)NC(C)(C)C | - | LAI | CEM | - | 4.6 µM
CCN(CC)CCCC(C)Nc1ccnc2cc(Cl)ccc12 | - | - | H9 | - | <100 µM
O=c1ccn([C@H]2C=C[C@@H](CO)O2)c(=O)n1CCCCN1CCN(CCNC(=S)Nc2ccc(Br)cn2)CC1 | - | IIIB | MT-4 | - | >100 µM
COC(=O)[C@H](C)NP(=O)(OC[C@@H]1C=C[C@H](n2cc(C)c(=O)[nH]c2=O)O1)Oc1ccc(Br)cc1 | - | IIIB | PBMC | - | 0.042 µM
Cn1cc(C(=O)O)c(=O)c2cc(N)c(N3CCN(c4ccccn4)CC3)cc21 | - | IIIB | H9 | - | 0.85 µM
COc1ccnc2[nH]cc(C(=O)C(=O)N3CCN(C(=O)c4ccccc4)C[C@H]3C)c12 | - | LAI | PBMC | - | <0.04 µM
C[Si](O)(O[Si](C)(CCCn1cnc2c(N)ncnc21)c1ccccc1)c1ccccc1 | - | IIIB | MT-2 | - | 14 µM
COc1cc2c(cc1Cc1cccc(Cl)c1F)c(=O)c(C(=O)O)cn2[C@H](CO)C(C)C | E138K | NL4-3 | PM1 | - | 0.0007 µM
C[C@H]1[C@H](O)[C@@H](C)/C=C/C=C/C=C/C=C/C=C/C=C/C=C/[C@H](O[C@@H]2O[C@H](C)[C@@H](O)[C@H](N)[C@@H]2O)C[C@@H]2O[C@](O)(C[C@@H](O)C[C@@H](O)CC[C@H](O)[C@@H](O)C[C@@H](O)CC(=O)O[C@H]1C)C[C@H](O)[C@H]2C(=O)O | - | NL4-3 WT | PBL | - | <10 µM
Cc1c(-c2ccc(SCCN(C)C)cc2)ncnc1-c1ccc(SCCN(C)C)cc1 | - | LAV | PBMC | - | 6 µM
CCOC(=O)[C@H](C)NP(=O)(OC[C@@H]1OC[C@H](n2cnc3c(N)nc(N)nc32)O1)Oc1ccccc1 | - | LAI | PBMC | - | 0.3 µM
CC(=O)N[C@@H](Cc1ccc(O)cc1)C(=O)N[C@H]1CSSC[C@@H](C(=O)O)NC(=O)[C@H](CCCCN)NC(=O)[C@H](CCCCN)NC1=O | - | NL4-3 | MT-4 | 6 d | >2.5 µM
COc1cc(C(=O)N2CCN(C(=O)c3cc(OC)c(OC)c(OC)c3)C(COC(=S)N(C)C)C2)cc(OC)c1OC | - | BaL | MDM | - | <100 µM
Cc1cc(=O)[nH]c(N2C(=O)/C(=C\c3ccc(Cl)cc3Cl)N=C2c2ccccc2)n1 | - | - | - | - | 48.69 µg/mL
O=C(c1ccccc1)C(F)(F)c1nc2ccccc2o1 | - | LAI | CEM + CEM-SS | - | >100 µM
CC(C)(C)NC(=O)[C@@H]1CN(Cc2cccnc2)CCN1C[C@H](C[C@@H](Cc1ccccc1)C(=O)N[C@H]1c2ccccc2C[C@H]1O)OC(=O)COc1ccc(C[C@H](N)C(=O)O)cc1 | - | LAI | CEM | - | 0.01 µM
CC(C)C1=C2C3CCC4[C@@]5(C)CC[C@H](OC(=O)CC(C)(C)C(=O)O)C(C)(C)C5CC[C@@]4(C)[C@]3(C)CC[C@@]2(NC(=O)N[C@@H](C)C2CCCCC2)CC1=O | - | IIIB | MT-2 | 30% human serum | <0.199 µM
Cc1cn([C@H]2O[C@@H](CO)C[C@@H]2O)c(=O)[nH]c1=O | - | - | MT-4 | - | >100 µM
CN(C)CCSc1nc(-c2ccccc2)c2ccccc2n1 | - | LAV | PBMC | - | 22.4 µM
[N-]=[N+]=N[C@H]1C[C@H](CO)O[C@@H]1n1cc(F)c(N)nc1=O | - | LAV | CEM | - | 3.9 µM
CN[C@@]12CC[C@]3(C)[C@H](CC[C@@H]4[C@@]5(C)CC[C@H](OC(=O)CC(C)(C)C(=O)O)C(C)(C)[C@@H]5CC[C@]43C)C1=C(C(C)C)C(=O)C2 | - | IIIB | MT-2 | 30% human serum | <0.199 µM
Nc1nc2c(ncn2[C@H]2CO[C@@H](CO)O2)c(=O)[nH]1 | - | LAI | PBMC | - | 0.4 µM
O=C(CNC(=O)COc1ccccc1)NCc1ccc(C(=O)N2CCCCC2)cc1 | - | 92BR030 | PBMC | - | 20.3 µM
CC(C)C1=C2[C@H]3CC[C@@H]4[C@@]5(C)CC[C@H](OC(=O)CC(C)(C)C(=O)O)C(C)(C)[C@@H]5CC[C@@]4(C)[C@]3(C)CC[C@@]2(NC(=O)c2ccc[nH]c2=O)CC1=O | - | IIIB | MT-2 | 30% human serum | <0.199 µM
CC1=N/C(=C/c2ccc(Cl)cc2)C(=O)N1c1nc(C)cc(=O)[nH]1 | - | - | - | - | 60.77 µg/mL
Cc1cn([C@H]2O[C@@H](CO)C[C@@H]2F)c(=O)[nH]c1=O | - | - | MT-4 | - | >100 µM
CN1CCN(Cc2ccc(-c3cccc(-c4ccc(CN5CCN(C)CC5)cc4)n3)cc2)CC1 | - | LAV | PBMC | - | 22 µM
CC1=N/C(=C/C2C=Nc3ccccc32)C(=O)N1c1nc(C)cc(Cl)n1 | - | - | - | - | 58.88 µg/mL
Cc1cn(C(CCO)SCCO)c(=O)[nH]c1=O | - | - | PBMC (mitogen stimulated) + PBMC | - | >100 µM
CN1N=C(N)c2cn([C@@H]3O[C@H](COP(=O)(O)O)[C@@H](O)[C@H]3O)c3ncnc1c23 | - | IIIB | H9 | - | 0.02 µM
COc1cc(-c2ccc(N=Nc3ccc4c(S(=O)(=O)O)cc(S(=O)(=O)O)c(N)c4c3O)c(OC)c2)ccc1N=Nc1ccc2c(S(=O)(=O)O)cc(S(=O)(=O)O)c(N)c2c1O | - | 214 | CEM + CEM-SS | - | 1.1 µM
CC(C)C[C@H](NC(=O)OC(C)(C)C)C(=O)O[C@H](CN1C[C@H]2CCCC[C@H]2C[C@H]1C(=O)NC(C)(C)C)[C@H](Cc1ccccc1)NC(=O)[C@H](CC(N)=O)NC(=O)c1ccc2ccccc2n1 | - | LAI | CEM | - | 0.137 µM
CN1CCN(c2nc(-c3cccs3)cc(-c3cc4ccccc4s3)n2)CC1 | - | LAV | PBMC | - | 10.1 µM
CC(C)C1=C2C3CC[C@@H]4[C@@]5(C)CC[C@H](OC(=O)CC(C)(C)C(=O)O)C(C)(C)[C@@H]5CC[C@@]4(C)[C@]3(C)CC[C@@]2(NC(=O)Nc2ccncc2)CC1=O | - | IIIB | MT-2 | 30% human serum | <0.199 µM
CN(C)CCSc1cccc(-c2cc(-c3cccc(SCCN(C)C)c3)nc(SCCN(C)C)n2)c1 | - | LAV | PBMC | - | 6.2 µM
CC(C)C1=C2[C@H]3CC[C@@H]4[C@@]5(C)CC[C@H](OC(=O)CC(C)(C)C(=O)O)C(C)(C)[C@@H]5CC[C@@]4(C)[C@]3(C)CC[C@@]2(NC(=O)C2CCCCN2C)CC1=O | - | IIIB | MT-2 | 30% human serum | <0.199 µM
CC(=O)N[C@H]1CSSC[C@@H](C(=O)N[C@@H](Cc2ccc(O)cc2)C(=O)O)NC(=O)[C@H](CCCCN)NC(=O)[C@H](CC(N)=O)NC1=O | - | NL4-3 | MT-4 | 6 d | >2.5 µM
C[C@H]1CO[C@@H]2Cn3cc(C(=O)NCc4ccc(F)cc4F)c(=O)c(O)c3C(=O)N12 | N155H | NL4-3 | CBMC | - | 0.0012 µM
CC(C)C1=C2C3CCC4[C@@]5(C)CC[C@H](OC(=O)CC(C)(C)C(=O)O)C(C)(C)C5CC[C@@]4(C)[C@]3(C)CC[C@@]2(NC(=O)N(C)C(C)C)CC1=O | - | IIIB | MT-2 | 30% human serum | <0.199 µM

For reference, 3 entries again:

{"compound": "CCN(CC)CCCC(C)Nc1ccnc2cc(Cl)ccc12", "cells": "H9", "result": "<100 µM"}
{"compound": "CC(C)[C@H](NC(=O)[C@H](Cc1ccccc1)C[C@H](O)[C@H](Cc1ccccc1)NC(=O)OC(C)(C)C)C(=O)N[C@@H](Cc1ccccc1)C(=O)N1CCOCC1", "strain or isolate": "Z-84", "cells": "MT-2", "result": "0.01 µM"}
{"compound": "CN[C@@]12CC[C@]3(C)[C@H](CC[C@@H]4[C@@]5(C)CC[C@H](OC(=O)CC(C)(C)C(=O)O)C(C)(C)[C@@H]5CC[C@]43C)C1=C(C(C)C)C(=O)C2", "strain or isolate": "IIIB", "cells": "MT-2", "conditions": "30% human serum", "result": "<0.199 µM"}